{"source": "PubChem BioAssay AID485395", "about": "(ICCB-Longwood Screening Facility, Harvard Medical School, 2010)", "note": "The entries are a selection whose mix differs from that of the whole data set. The source made the active and inactive calls. No stated cut-off is given here; in the data, active means inhibition above about 25% (passing the limit was not always enough); inactive means the rest.", "data": [{"tested_on": "replicative DNA helicase (DnaC/DnaB), Staphylococcus aureus", "assay": "S. aureus DnaC helicase unwinding inhibition – biochemical, fluorescence unwinding readout, primary screen (AID 485395);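 further: 0% = mean of negative control wells and 100% = mean of positive control wells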", "details": "purified S. aureus helicase, fluorescence unwinding assay; stronger effect = higher value; concentration not given here", "values": [{"smiles": "CC(=O)OC1(C#N)CN2CCC1CC2", "note": "(stereo not given)", "inhibition": "inactive: 8%"}, {"smiles": "Nc1nonc1OCc1nonc1COc1nonc1N", "inhibition": "inactive: 39%"}, {"smiles": "C=CCN1CCN(CCOC(=O)C(O)(c2ccccc2)c2ccccc2)CC1", "inhibition": "inactive: -7%"}, {"smiles": "Cc1ccccc1NP(C)(=O)Nc1ccccc1C", "inhibition": "inactive: 25%"}, {"smiles": "CC(=O)OC1CN2CCC1C(c1ccccc1)C2", "note": "(stereo not given)", "inhibition": "inactive: -2%"}, {"smiles": "O=P(Nc1nccs1)(c1ccccc1)c1ccccc1", "inhibition": "inactive: -6%"}, {"smiles": "O=C(OCCN1CCN(CCOCc2ccccc2)CC1)C(O)(c1ccccc1)c1ccccc1", "inhibition": "inactive: -4%"}, {"smiles": "O=P1(Nc2nncs2)C=C(c2ccccc2)SC(c2ccccc2)=C1", "inhibition": "inactive: -5%"}, {"smiles": "Cc1cc(NC2=NC3C(C(=O)N(C)C(=O)N3C)N2C)n(-c2ccccc2)n1", "note": "(stereo not given)", "inhibition": "inactive: -12%"}, {"smiles": "O=P1(Nc2nc3ccc(Cl)cc3s2)COc2ccccc2O1", "note": "(stereo not given)", "inhibition": "inactive: 9%"}, {"smiles": "CC1CCC(C(C)C)C(OP(=O)(Nc2nccs2)c2ccccc2)C1", "note": "(stereo not given)", "inhibition": "inactive: -4%"}, {"smiles": "COC(=O)c1cc2c(s1)N=C(c1ccccc1)N(C)P2(=O)N1CCOCC1", "note": "(stereo not given)", "inhibition": "inactive: -13%"}, {"smiles": "COc1cc2c(cc1NP(C)(=O)Oc1ccccc1)oc1ccccc12", "note": "(stereo not given)", "inhibition": "inactive: 1%"}, {"smiles": "O=C(OCC1CN(Cc2ccccc2)CCO1)C(O)(c1ccccc1)c1ccccc1", "note": "(stereo not given)", "inhibition": "inactive: 7%"}, {"smiles": "CCOP(=Nc1nc2ccccc2n2nnnc12)(OCC)OCC", "inhibition": "inactive: 3%"}, {"smiles": "O=C(COC(=O)C(O)(c1ccccc1)c1ccccc1)N1CCCCC1", "inhibition": "inactive: 15%"}, {"smiles": "CP(=O)(Nc1ccccn1)Oc1ccccc1", "note": "(stereo not given)", "inhibition": "inactive: 9%"}, {"smiles": "CCOP(OCC)N1CCOCC1", "inhibition": "inactive: -2%"}, {"smiles": "CP(=O)(Nc1ccc(Cl)cc1)Oc1ccc(F)cc1", "note": "(stereo not given)", "inhibition": "inactive: 1%"}, {"smiles": "CCc1ccc(OP(C)(=O)Nc2cccnc2)cc1", "note": "(stereo not given)", "inhibition": "inactive: 3%"}, {"smiles": "CCc1nc2c(n1)c1c(non1O)c1c2no[n+]1[O-]", "inhibition": "inactive: -2%"}, {"smiles": "CCN1C(=O)N(c2ccccc2)P(=S)(OC)c2cc3c(cc21)OCCO3", "note": "(stereo not given)", "inhibition": "inactive: -11%"}, {"smiles": "COc1ccccc1OP(C)(=O)Nc1ccccc1", "note": "(stereo not given)", "inhibition": "inactive: -5%"}, {"smiles": "CP(=O)(Nc1ccc(Cl)cc1)Oc1ccccc1", "note": "(stereo not given)", "inhibition": "inactive: 0%"}, {"smiles": "O=C(O)CCC(=O)N=S(c1ccccc1)c1ccccc1.O=[N+]([O-])c1cc([N+](=O)[O-])c(O)c([N+](=O)[O-])c1", "inhibition": "inactive: -17%"}, {"smiles": "CCn1cccc/c1=N\\P1(=S)OCCO1", "inhibition": "inactive: 17%"}, {"smiles": "Cc1cccc(NP(C)(=O)Oc2ccccc2)c1", "note": "(stereo not given)", "inhibition": "inactive: 12%"}, {"smiles": "CCOC(=O)c1ccc(NP(C)(=O)Oc2ccc(OC)cc2)cc1", "note": "(stereo not given)", "inhibition": "inactive: -3%"}, {"smiles": "CP(=O)(NC(=O)Nc1ccccc1)Oc1ccccc1", "note": "(stereo not given)", "inhibition": "inactive: -12%"}, {"smiles": "COP1(=S)c2c(C)nn(-c3ccccc3)c2N=C(c2ccccc2)N1C1CC1", "note": "(stereo not given)", "inhibition": "inactive: 12%"}]}]}
